From PMC11325505, “Nitrogen-Containing Flavonoids—Preparation and Biological Activity” (ACS Omega, 2024) come the findings set out here.

The subject of this data set is RAW 264.7 cells. Nature of the data set: Cellular antioxidant activity (CAA). It is filed as cell-based, Murine. The note with it: CAA in macrophages; vs quercetin or luteolin. The protocol:
To evaluate the antioxidant activity of the prepared derivatives and the respective parent compounds, cellular antioxidant activity (CAA) was measured in macrophages. Compared to other in vitro antioxidant assays, this method provides partial information about the uptake and metabolism of the compounds, because, in this assay, they must first enter the cell to exert antioxidant activity.[31] […] Derivatization of quercetin at C-8 with 4-fluoroaniline (5) increased the antioxidant activity of quercetin by 1.7-fold. […] The concentration of these derivatives required to halve the cellular radicals decreased 1.5-fold compared to luteolin.
Cellular antioxidant capacity was evaluated as previously described.[31],[39] Briefly, 100 μL of RAW 264.7 cells with a density corresponding to 1 × 10^6 cells/mL were split into 96-well plates. After 24 h, cells were washed with PBS, and DMEM supplemented with DCFH-DA (0.0125 mg/mL) was added to each well together with the tested samples in the concentration range of 1.5–200 μM. After 1 h incubation in a CO2 incubator, the medium was replaced with AAPH solution (0.16 mg/mL in PBS), and fluorescence was immediately recorded (ex./em. 485/540 nm) for 2 h in 5 min intervals.
As to `O=c1cc(-c2ccc(O)c(O)c2)oc2c(Nc3ccccc3)c(O)cc(O)c12` [compound 13, 2-(3,4-Dihydroxyphenyl)-8-(anilino)-5,7-dihydroxy-4H–1-benzopyran-4-one], the “improvement of antioxidant activity (decrease of the concentration halving cellular radicals) compared to the parent compound” value worked out at 1.5 fold.

Turning to `O=c1cc(-c2ccc(O)c(O)c2)oc2c(Nc3ccc(F)cc3)c(O)cc(O)c12` [compound 11, 2-(3,4-Dihydroxyphenyl)-8-(4-fluoroanilino)-5,7-dihydroxy-4H–1-benzopyran-4-one], the “improvement of antioxidant activity (decrease of the concentration halving cellular radicals) compared to the parent compound” value is 1.5 fold.

As for `O=c1c(O)c(-c2ccc(O)c(O)c2)oc2c(Nc3ccc(F)cc3)c(O)cc(O)c12` [compound 5, 2-(3,4-Dihydroxyphenyl)-8-(4-fluoroanilino)-3,5,7-trihydroxy-4H–1-benzopyran-4-one], the “improvement of antioxidant activity (decrease of the concentration halving cellular radicals) compared to the parent compound” value is listed as 1.7 fold.
